Test results published in US20180009859A1, “PHARMACOLOGICAL MODULATORS OF GABAA RECEPTORS AND THEIR USE” (priority 2015, published 2018).

System: GABAA receptors in SPMs
Format: binding, rat

B1: ^125I-rMmTX2: MmTX2 radioactively labeled by lacto-peroxidase-catalyzed iodination (protein)
peptide: LTCKTCPFTTCPNSESCPGGQSICYQRKWEEHHGERIERRCVANCPAFGSHDTSLLCCTRDNCN
ratio of Bmax with/without PTX (1 mM PTX): 2.01 | maximum capacity Bmax (SPMs, without PTX): 264 ± 14 fmol/mg | Bmax with PTX (in the presence of 1 mM PTX): 532 ± 33 fmol/mg
